A mixed list of measured activities; the numbers were collected in NIAID ChemDB.

All rows: whole-cell or culture tests; agent: Mycobacterium avium complex

An empty or dashed field is not shown. ECn is the concentration giving n% inhibition of infection, replication or growth. Percent inhibition refers to the dose given; in toxicity tests it is the harm to the cells. Neighbouring rows are from separate reports. A number after MIC or MFC names an inhibition level or a share of isolates.

compound	strain	read by	endpoint	dose	result
CC[C@@H](CO)NCCN[C@@H](CC)CO	1854		MBC		15 µg/mL
CN[C@@H]1[C@H](O[C@H]2[C@H](O[C@H]3[C@H](O)[C@@H](O)[C@H](N=C(N)N)[C@@H](O)[C@@H]3N=C(N)N)O[C@@H](C)[C@]2(O)C=O)O[C@@H](CO)[C@H](O)[C@H]1O	ATCC 15769		MIC		25 µg/mL
CCC1CN(c2nc3c(cc2F)c(=O)c(C(=O)O)cn3C2CC2)CCN1	14 strains		MIC90		32 µg/mL
Nc1ccc(C(=O)O)c(O)c1	97 strains	agar	EC50		>5 µg/mL
NC[C@@H]1O[C@H](O[C@H]2[C@@H](O)[C@H](O[C@@H]3[C@@H](O)[C@H](N)C[C@H](N)[C@H]3O[C@H]3O[C@H](CO)[C@@H](O)[C@H](O)[C@H]3N)O[C@@H]2CO)[C@H](N)[C@@H](O)[C@@H]1O	541/HIV+		MIC		1.56 µg/mL
COc1c(N2CCNCC2)c(F)cc2c(=O)c(C(=O)O)cn(C3CC3)c12	14 strains		MIC90		4 µg/mL
NC(=O)c1cnccn1	155 strains	agar	EC50		>50 µg/mL
O=C(O)c1cn(-c2ccc(F)cc2F)c2nc(N3CCNCC3)c(F)cc2c1=O	14 strains		MIC50		≥32 µg/mL
CO[C@H]1/C=C/O[C@@]2(C)Oc3c(C)c(O)c4c(O)c(c5c(c4c3C2=O)NC2(CCN(CC(C)C)CC2)N=5)=NC(=O)/C(C)=C\C=C\[C@H](C)[C@H](O)[C@@H](C)[C@@H](O)[C@@H](C)[C@H](OC(C)=O)[C@@H]1C	921-5		MIC		2 µg/mL
CN[C@@H]1[C@@H](O)[C@@H](O[C@@H]2[C@@H](O)[C@H](O[C@H]3O[C@H](CN)CC[C@H]3N)[C@@H](N)C[C@H]2N)OC[C@]1(C)O	31 strains	broth dilution	inhibition	8 µg/mL	39%
CN1CC2CC1CN2c1c(F)cc2c(=O)c(C(=O)O)cn(C3CC3)c2c1F	14 strains		MIC90		4 µg/mL
CO[C@H]1/C=C/O[C@@]2(C)Oc3c(C)c(O)c4c(O)c(c(/C=N/N5CCN(C)CC5)c(O)c4c3C2=O)NC(=O)/C(C)=C\C=C\[C@H](C)[C@H](O)[C@@H](C)[C@@H](O)[C@@H](C)[C@H](OC(C)=O)[C@@H]1C	26 isolates (HIV+)		MIC50		0.5 µg/mL
CC(C)N=c1cc2n(-c3ccc(Cl)cc3)c3ccccc3nc-2cc1Nc1ccc(Cl)cc1	14 strains	agar	inhibition	1 µg/mL	86%
CC(C)N=c1cc2n(-c3ccc(Cl)cc3)c3ccccc3nc-2cc1Nc1ccc(Cl)cc1	CH-1/HIV+		MIC		0.5 µg/mL
CC1CN(c2cc3c(cc2F)c(=O)c(C(=O)O)cn3C2CC2)CC(C)N1	14 strains		MIC50		0.5 µg/mL

Repeating the final 2 entries:

compound | strain | read by | endpoint | dose | result
CC(C)N=c1cc2n(-c3ccc(Cl)cc3)c3ccccc3nc-2cc1Nc1ccc(Cl)cc1 | CH-1/HIV+ |  | MIC |  | 0.5 µg/mL
CC1CN(c2cc3c(cc2F)c(=O)c(C(=O)O)cn3C2CC2)CC(C)N1 | 14 strains |  | MIC50 |  | 0.5 µg/mL